# Experimental data as given in patent US20240109955A1 (published 2024).
# B1: MX1069 (other)
# chain 1: QTVVTQEPSFSVSPGGTVTLTCGLSSGSVSTAYFPSWYQQTPGQAPRTLIYGTNTRSSGVPDRFSGSILGNKAALTITGAQADDESDYYCVLYMGRGIVVFGGGTKLTVLGGSSGEIVLTQSPGTLSLSPGETATLSCRASQSFSSDLAWYQQKPGQAPRLLIYGASSRATGIPDRFSGSGSGTDFTLTISRLEPADFAVYYCQQYGSSPPVTFGGGTKVEIKGGGGSGGSGSGGGGSASGSGEVQLVESGGGLIQPGGSLRLSCAASGVIVSYNYMNWVRQAPGKGLEWVSVIYSGGSTFYADSVRGRFTISRDNSKNTLYLQMNSLRAEDTAVYYCARDLGPAGAFDIWGLGTMVTVSSGGSSGQVQLVESGGGVVQPGRSLRLSCAASGFTLSSYGMHWVRQAPGKGLEWVAVISYDGSNKYYVDSVKGRFTISRDNSKNTLYLQMNSLRAEDTAVYYCRWAYWELLPDYYYGMDVWGQGTTVTVSSASGGSGDKTHTCPPCPAPELLGGPSVFLFPPKPKDTLMISRTPEVTCVVVDVSHEDPEVKFNWYVDGVEVHNAKTKPREEQYNSYVVSVLTVLHQDWLNGKEYKCKVSNKALPAPIEKTISKAKGQPREPQVYTLPPCRDELTKNQVSLWCLVKGFYPSDIAVEWESNGQPENNYKTTPPVLDSDGSFFKKLTVDKSRWQQGNVFSCSVLHEALHSHYTQKSLSLSPG
# chain 2: EIVLTQSPGTLSLSPGETATLSCRASQSFSSDLAWYQQKPGQAPRLLIYGASSRATGIPDRFSGSGSGTDFTLTISRLEPADFAVYYCQQYGSSPPVTFGGGTKVEIKGGSSGDTVMTQSPLSLPVTPGEPASISCRSSQSLLNSNGYNYLDWYVQKPGQSPQLLIYLGSNRASGVPDRFSGSGSGTDFTLKISRVEAEDVGVYYCMQPLQTPLFTFGPGTKVEIKGGGGSGGSGSGGGGSASGSGQVTLRESGPALVKPTQTLTLTCTFSGFSLSTRGVCVSWIRQPPGKALEWLAFIDWDDDKYYNTSLKTRLTISKDTSKNQVVLTMTNVHPVDTATYYCARISSHHGSSWCTTFDYWGQGALVTVSAGGSSGEVQLVESGGGLIQPGGSLRLSCAASGVIVSYNYMNWVRQAPGKGLEWVSVIYSGGSTFYADSVRGRFTISRDNSKNTLYLQMNSLRAEDTAVYYCARDLGPAGAFDIWGLGTMVTVSSASGGSGDKTHTCPPCPAPELLGGPSVFLFPPKPKDTLMISRTPEVTCVVVDVSHEDPEVKFNWYVDGVEVHNAKTKPREEQYNSYVVSVLTVLHQDWLNGKEYKCKVSNKALPAPIEKTISKAKGQPREPQVCTLPPSRDELTKNQVSLSCAVKGFYPSDIAVEWESNGQPENNYKTTPPVLDSDGSFFLVSKLTVDKSRWQQGNVFSCSVLHEALHSHYTQKSLSLSPG
# B2: MX1023 (bispecific antibody)
# chain: EIVMTQSPAILSVSPGERATLSCRASQSVAINLAWYQQKPGQAPRLLIYAASSRATGIPGRFSGSGSETNFTLTISSLQSGDFAVYYCQQYITWPPSYTFGQGTKLEIKGGSSGQTVVTQEPSFSVSPGGTVTLTCGLSSGSVSTAYFPSWYQQTPGQAPRTLIYGTNTRSSGVPDRFSGSILGNKAALTITGAQADDESDYYCVLYMGRGIVVFGGGTKLTVLGGGGSGGSGSGGGGSASGSGQVQLVESGGGVVQPGRSLRLSCAASGFTLSSYGMHWVRQAPGKGLEWVAVISYDGSNKYYVDSVKGRFTISRDNSKNTLYLQMNSLRAEDTAVYYCRWAYWELLPDYYYGMDVWGQGTTVTVSSGGSSGEVQLVESGGALIQPGGSLRLSCAASGIIVSANYMSWVRQAPGKGLEWVSVIYSGGSTFYADSVKGRFTISRDNSKNTLYLEMNSLRAEDTAVYYCARDAPILGVSDWGQGTLVTVSSASGGSGDKTHTCPPCPAPELLGGPSVFLFPPKPKDTLMISRTPEVTCVVVDVSHEDPEVKFNWYVDGVEVHNAKTKPREEQYNSYVVSVLTVLHQDWLNGKEYKCKVSNKALPAPIEKTISKAKGQPREPQVYTLPPSRDELTKNQVSLTCLVKGFYPSDIAVEWESNGQPENNYKTTPPVLDSDGSFFKKLTVDKSRWQQGNVFSCSVLHEALHSHYTQKSLSLSPG
# B3: MX1042 (bispecific antibody)
# chain: DTVMTQSPLSLPVTPGEPASISCRSSQSLLNSNGYNYLDWYVQKPGQSPQLLIYLGSNRASGVPDRFSGSGSGTDFTLKISRVEAEDVGVYYCMQPLQTPLFTFGPGTKVEIKGGSSGEIVLTQSPGTLSLSPGETATLSCRASQSFSSDLAWYQQKPGQAPRLLIYGASSRATGIPDRFSGSGSGTDFTLTISRLEPADFAVYYCQQYGSSPPVTFGGGTKVEIKGGGGSGGSGSGGGGSASGSGEVQLVESGGGLIQPGGSLRLSCAASGVIVSYNYMNWVRQAPGKGLEWVSVIYSGGSTFYADSVRGRFTISRDNSKNTLYLQMNSLRAEDTAVYYCARDLGPAGAFDIWGLGTMVTVSSGGSSGQVTLRESGPALVKPTQTLTLTCTFSGFSLSTRGVCVSWIRQPPGKALEWLAFIDWDDDKYYNTSLKTRLTISKDTSKNQVVLTMTNVHPVDTATYYCARISSHHGSSWCTTFDYWGQGALVTVSAASGGSGDKTHTCPPCPAPELLGGPSVFLFPPKPKDTLMISRTPEVTCVVVDVSHEDPEVKFNWYVDGVEVHNAKTKPREEQYNSYVVSVLTVLHQDWLNGKEYKCKVSNKALPAPIEKTISKAKGQPREPQVYTLPPSRDELTKNQVSLTCLVKGFYPSDIAVEWESNGQPENNYKTTPPVLDSDGSFFKKLTVDKSRWQQGNVFSCSVLHEALHSHYTQKSLSLSPG
# Tests used:
# Assay in all cases: cell-based or functional assay
# [1] = biological target: SARS-CoV-2 spike protein, Omicron variant BA.4/5 (SARS-CoV-2)
# [2] = biological target: SARS-CoV-2 spike protein, Omicron variant BQ.1 (SARS-CoV-2)
# [3] = biological target: SARS-CoV-2 spike protein, Omicron variant BQ.1.1 (SARS-CoV-2)
# [4] = biological target: SARS-CoV-2 spike protein, Omicron variant BA.2.75.2 (SARS-CoV-2)
# [5] = biological target: SARS-CoV-2 spike protein, Omicron variant XBB (SARS-CoV-2)
# [6] = biological target: SARS-CoV-2 spike protein, Omicron variant XBB1.5 (SARS-CoV-2)
# [7] = biological target: SARS-CoV-2 spike protein, Omicron variant CH.1.1 (SARS-CoV-2)
# [8] = biological target: SARS-CoV-2 spike protein, Delta variant (SARS-CoV-2)
# [9] = biological target: SARS-CoV-2 Omicron variant BA.4/5 spike protein (SARS-CoV-2)
# [10] = biological target: SARS-CoV-2 Omicron variant BQ.1 spike protein (SARS-CoV-2)
# [11] = biological target: SARS-CoV-2 Omicron variant BQ.1.1 spike protein (SARS-CoV-2)
# [12] = biological target: SARS-CoV-2 Omicron variant BA.2.75.2 spike protein (SARS-CoV-2)
# [13] = biological target: SARS-CoV-2 Omicron variant XBB spike protein (SARS-CoV-2)
# [14] = biological target: SARS-CoV-2 Delta variant spike protein (SARS-CoV-2)
# [15] = biological target: SARS-CoV-2 Omicron variant B.1.1.529 spike protein (SARS-CoV-2)
# [16] = biological target: SARS-CoV-2 Omicron variant BA.4.6 spike protein (SARS-CoV-2)
# [17] = biological target: SARS-CoV-2 Omicron variant BF.7 spike protein (SARS-CoV-2)
# [18] = biological target: SARS-CoV-2 Delta variant spike protein (SARS-CoV-2); remark: listed apart in the source
# [19] = biological target: SARS-CoV-2 Omicron variant B.1.1.529 spike protein (SARS-CoV-2); remark: listed apart in the source
binder,measurement,setting,value
B1,"IC50, pseudovirus neutralization",[1],0.00147 µg/mL
same,"IC80, pseudovirus neutralization",[1],0.00244 µg/mL
same,"IC50, pseudovirus neutralization",[2],0.00083 µg/mL
same,"IC80, pseudovirus neutralization",[2],0.00307 µg/mL
same,"IC50, pseudovirus neutralization",[3],0.00189 µg/mL
same,"IC80, pseudovirus neutralization",[3],0.0065 µg/mL
same,"IC50, pseudovirus neutralization",[4],0.00181 µg/mL
same,"IC80, pseudovirus neutralization",[4],0.00333 µg/mL
same,"IC50, pseudovirus neutralization",[5],0.00248 µg/mL
same,"IC80, pseudovirus neutralization",[5],0.0052 µg/mL
same,"IC50, pseudovirus neutralization",[6],0.0348 µg/mL
same,"IC80, pseudovirus neutralization",[6],0.0655 µg/mL
same,"IC50, pseudovirus neutralization",[7],0.0271 µg/mL
same,"IC80, pseudovirus neutralization",[7],0.104 µg/mL
same,"IC50, pseudovirus neutralization",[8],0.0401 µg/mL
same,"IC80, pseudovirus neutralization",[8],0.0476 µg/mL
B2,"IC50, pseudovirus neutralization",[9],0.0297 µg/mL
same,"IC80, pseudovirus neutralization",[9],0.0307 µg/mL
same,"IC50, pseudovirus neutralization",[10],0.0297 µg/mL
same,"IC80, pseudovirus neutralization",[10],0.0852 µg/mL
same,"IC50, pseudovirus neutralization",[11],0.0284 µg/mL
same,"IC80, pseudovirus neutralization",[11],0.096 µg/mL
same,"IC50, pseudovirus neutralization",[12],0.0111 µg/mL
same,"IC80, pseudovirus neutralization",[12],0.0295 µg/mL
same,"IC50, pseudovirus neutralization",[13],0.00979 µg/mL
same,"IC80, pseudovirus neutralization",[13],0.0532 µg/mL
same,"IC50, pseudovirus neutralization",[14],0.0889 µg/mL
same,"IC80, pseudovirus neutralization",[14],0.205 µg/mL
same,"IC50, pseudovirus neutralization",[15],0.00374 µg/mL
same,"IC80, pseudovirus neutralization",[15],0.00867 µg/mL
same,"IC50, pseudovirus neutralization",[16],0.0234 µg/mL
same,"IC80, pseudovirus neutralization",[16],0.0775 µg/mL
same,"IC50, pseudovirus neutralization",[17],0.0187 µg/mL
same,"IC80, pseudovirus neutralization",[17],0.0545 µg/mL
B3,"IC50, pseudovirus neutralization",[18],0.0417 µg/mL
same,"IC80, pseudovirus neutralization",[18],0.0614 µg/mL
same,"IC50, pseudovirus neutralization",[19],0.00256 µg/mL
same,"IC80, pseudovirus neutralization",[19],0.00434 µg/mL

# Read-outs that look alike come from different tables or passages of the source.
